Experimental data reported in ChEMBL document CHEMBL4011590, “Structure-activity relationship studies on 3,5-dinitrophenyl tetrazoles as antitubercular agents” (Eur J Med Chem, 2017).
≈ marks a conversion by molar mass, not a printed value.

Assays:
Mycobacterium avium [1] = experiment: Antimycobacterial activity against Mycobacterium avium CNCTC My 330/80 after 14 days by micromethod; type: functional
Mycobacterium avium [2] = experiment: Antimycobacterial activity against Mycobacterium avium CNCTC My 330/80 after 21 days by micromethod; type: functional

SMILES | MIC>99 (Mycobacterium avium [1]) [µM] | MIC>99 (Mycobacterium avium [2]) [µM]
O=[N+]([O-])c1cc(Cn2nnc(-c3cc([N+](=O)[O-])cc([N+](=O)[O-])c3)n2)cc([N+](=O)[O-])c1 | 4 (≈ 1.67 µg/mL) | 4 (≈ 1.67 µg/mL)
O=[N+]([O-])c1ccc(Cn2nnc(-c3cc([N+](=O)[O-])cc([N+](=O)[O-])c3)n2)cc1 | 4 (≈ 1.49 µg/mL) | 4 (≈ 1.49 µg/mL)
